Results from article PMC12319226 (Frontiers in Bioinformatics, 2025).
Several values for one entry are separate records, joined by “and”; a condition that tells them apart may be missing. Equal values may be shown once.

Experiments:
Assay in all cases: BLI
Conditions in all cases: both partners purified
fHbp m002335 = target: T1, fHbp m002335 (Neisseria meningitidis; fHbp …, chimera)
T1 chain: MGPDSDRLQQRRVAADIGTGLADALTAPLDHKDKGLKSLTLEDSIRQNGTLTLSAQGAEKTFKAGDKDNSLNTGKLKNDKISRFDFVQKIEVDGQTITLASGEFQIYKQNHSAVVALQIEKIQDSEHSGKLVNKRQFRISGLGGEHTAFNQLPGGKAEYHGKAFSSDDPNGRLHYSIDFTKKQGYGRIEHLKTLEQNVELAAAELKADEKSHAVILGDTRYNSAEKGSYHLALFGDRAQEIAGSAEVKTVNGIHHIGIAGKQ

fHbp m002413 = target: T2, fHbp m002413 (Neisseria meningitidis, designed fHbp …, chimera)
T2 chain: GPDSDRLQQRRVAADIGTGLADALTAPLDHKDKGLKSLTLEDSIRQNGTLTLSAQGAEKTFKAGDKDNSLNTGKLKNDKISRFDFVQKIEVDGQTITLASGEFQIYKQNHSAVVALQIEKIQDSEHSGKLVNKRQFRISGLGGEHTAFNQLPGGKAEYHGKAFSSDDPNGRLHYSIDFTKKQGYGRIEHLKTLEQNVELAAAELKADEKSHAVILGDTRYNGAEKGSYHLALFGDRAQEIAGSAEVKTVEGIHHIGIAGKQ

fHbp m001935 = target: T3, fHbp m001935 (Neisseria meningitidis; fHbp …, chimera)
T3 chain: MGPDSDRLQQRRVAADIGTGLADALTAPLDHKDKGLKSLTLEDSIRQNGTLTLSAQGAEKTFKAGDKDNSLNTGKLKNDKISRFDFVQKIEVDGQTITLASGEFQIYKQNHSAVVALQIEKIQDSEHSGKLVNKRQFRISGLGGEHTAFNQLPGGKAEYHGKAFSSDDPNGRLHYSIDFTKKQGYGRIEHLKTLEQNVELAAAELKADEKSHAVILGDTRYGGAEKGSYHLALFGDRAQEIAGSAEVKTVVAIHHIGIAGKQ

fHbp m001927 = target: T4, fHbp m001927 (Neisseria meningitidis; fHbp …, chimera)
T4 chain: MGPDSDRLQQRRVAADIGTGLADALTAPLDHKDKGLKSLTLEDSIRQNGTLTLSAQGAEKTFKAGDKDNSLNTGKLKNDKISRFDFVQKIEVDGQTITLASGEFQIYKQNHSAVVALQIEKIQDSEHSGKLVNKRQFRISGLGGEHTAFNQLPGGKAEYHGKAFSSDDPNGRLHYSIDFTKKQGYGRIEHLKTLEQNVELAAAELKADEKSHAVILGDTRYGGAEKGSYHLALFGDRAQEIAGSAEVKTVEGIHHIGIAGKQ

fHbp m001691 = target: T5, fHbp m001691 (Neisseria meningitidis; fHbp …, point mutant)
T5 chain: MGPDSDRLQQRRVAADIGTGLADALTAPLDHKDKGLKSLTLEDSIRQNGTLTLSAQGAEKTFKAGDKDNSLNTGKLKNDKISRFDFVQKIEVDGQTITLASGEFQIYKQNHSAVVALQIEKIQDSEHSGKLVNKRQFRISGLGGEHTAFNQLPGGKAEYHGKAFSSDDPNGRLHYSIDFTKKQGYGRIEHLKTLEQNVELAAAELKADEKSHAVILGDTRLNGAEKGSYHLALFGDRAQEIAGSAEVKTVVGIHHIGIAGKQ

fHbp m002421 = target: T6, fHbp m002421 (Neisseria meningitidis, designed fHbp …, point mutant)
T6 chain: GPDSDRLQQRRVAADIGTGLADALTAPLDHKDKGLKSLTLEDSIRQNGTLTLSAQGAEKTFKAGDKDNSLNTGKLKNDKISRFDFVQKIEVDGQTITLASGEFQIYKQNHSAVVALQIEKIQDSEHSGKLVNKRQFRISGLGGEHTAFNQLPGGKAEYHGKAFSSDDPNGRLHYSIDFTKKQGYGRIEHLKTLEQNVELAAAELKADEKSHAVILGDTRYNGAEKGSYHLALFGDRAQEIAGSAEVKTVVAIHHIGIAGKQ

fHbp m002252 = target: T7, fHbp m002252 (Neisseria meningitidis; fHbp …, chimera)
T7 chain: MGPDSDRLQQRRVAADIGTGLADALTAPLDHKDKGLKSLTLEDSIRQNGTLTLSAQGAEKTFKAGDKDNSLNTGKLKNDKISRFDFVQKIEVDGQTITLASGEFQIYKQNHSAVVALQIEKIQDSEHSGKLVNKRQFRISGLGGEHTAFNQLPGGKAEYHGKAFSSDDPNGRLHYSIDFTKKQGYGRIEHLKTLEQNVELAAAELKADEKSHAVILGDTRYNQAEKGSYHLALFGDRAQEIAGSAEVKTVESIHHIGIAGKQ

fHbp m002392 = target: T8, fHbp m002392 (Neisseria meningitidis; fHbp …, chimera)
T8 chain: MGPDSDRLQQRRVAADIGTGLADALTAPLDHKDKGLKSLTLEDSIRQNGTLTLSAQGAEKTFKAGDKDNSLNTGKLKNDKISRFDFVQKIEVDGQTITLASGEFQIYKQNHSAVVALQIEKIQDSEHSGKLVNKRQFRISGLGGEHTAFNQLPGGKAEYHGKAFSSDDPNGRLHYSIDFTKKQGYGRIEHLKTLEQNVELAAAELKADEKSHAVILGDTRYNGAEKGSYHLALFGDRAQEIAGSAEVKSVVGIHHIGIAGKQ

fHbp m001932 = target: T9, fHbp m001932 (Neisseria meningitidis; fHbp …, chimera)
T9 chain: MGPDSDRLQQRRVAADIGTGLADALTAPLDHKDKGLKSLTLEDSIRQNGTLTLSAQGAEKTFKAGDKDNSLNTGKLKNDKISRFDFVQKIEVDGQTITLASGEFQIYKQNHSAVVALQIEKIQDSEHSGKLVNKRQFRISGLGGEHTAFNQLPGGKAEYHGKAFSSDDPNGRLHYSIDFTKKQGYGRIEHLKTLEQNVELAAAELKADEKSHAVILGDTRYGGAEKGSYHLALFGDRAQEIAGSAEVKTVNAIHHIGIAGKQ

B1: chimeric antibody hJAR5 (antibody, V domains shown)
VH: QVQMQQPGAELVKPGASVKLSCKASGYTFISYWMHWVKQRPGRGLEWIGRIAPDTGIIYYNEKFKNKATLTVDTPSSTAYMQLNSLTSEDSAVYYCARYLKYDGSTYRFDYWGQGTTLTVSS
VL: DIVMTQAAPSVPVTPGESVSISCRSSKSLLHSNGNTYLFWFLQRPGQSPQLLIYRMSNLASGVPDRFSGSGSGTSFTLRISRVEAEDVGVYYCMQHLEYPYTFGGGTKLEIK
notes: also called hJAR5-2; humanized JAR5; source: Expi293, purified (MabSelect SuRe, SEC); copies: 2 + 2
For B1, the koff (fHbp m002335) was 0.000316 s⁻¹, the koff (fHbp m002413) was 0.000487 s⁻¹ and the kon (fHbp m002413) was 446800 ± 1750 M⁻¹ s⁻¹. For the same binder, the kon (fHbp m001935) was 556800 ± 3250 M⁻¹ s⁻¹, the kon (fHbp m001927) was 450900 ± 1400 M⁻¹ s⁻¹ and the koff (fHbp m001691) was 0.000302 s⁻¹. The kon (fHbp m001691) was 360100 ± 2370 M⁻¹ s⁻¹, the koff (fHbp m002421) was 0.00024 s⁻¹ and the koff (fHbp m002252) was 0.00112 s⁻¹. For the same binder, the kon (fHbp m002252) was 221100 ± 2120 M⁻¹ s⁻¹, the koff (fHbp m002392) was 0.000294 s⁻¹ and 0.000305 s⁻¹ and the kon (fHbp m002392) was 413000 M⁻¹ s⁻¹ and 443000 M⁻¹ s⁻¹. For the same binder, the kon (fHbp m001932) was 251000 ± 1280 M⁻¹ s⁻¹.
